Data on 20 compounds can be found in patent US20250115620A1, “BRIDGED TRICYCLIC CARBAMOYLPYRIDONE COMPOUNDS AND USES THEREOF” (Gilead Sciences, Inc., priority 2022, published 2025).

In this series the test system is pLAI reporter virus. Format: cell-based, HIV. The settings on record: EC50 (50% HS)/EC50 (CCM).
In the case of `C[C@H]1CC[C@@]2(COCO2)[C@H]2CN1C(=O)c1c(O)c(=O)c(C(=O)NCc3c(F)cc(F)cc3F)cn12` [Example 131, (3′S,4S,7′R)-12′-hydroxy-3′-methyl-1′,11′-dioxo-N-(2,4,6-trifluorobenzyl)-1′,4′,5′,11′-tetrahydro-3′H,7′H-spiro[[1,3]dioxolane-4,6′-[2,7]methanopyrido[1,2-a][1,4]diazonine]-10′-carboxamide], the “RLUC 50% HS Shift” value is 16×.
The same measure for `C[C@@H]1OC[C@]2(CC[C@H](C)N3C[C@H]2n2cc(C(=O)NCc4c(F)cc(F)cc4F)c(=O)c(O)c2C3=O)O1` [Example 133, (2R,3′S,4R,7′R)-12′-hydroxy-2,3′-dimethyl-1′,11′-dioxo-N-(2,4,6-trifluorobenzyl)-1′,4′,5′,11′-tetrahydro-3′H,7′H-spiro[[1,3]dioxolane-4,6′-[2,7]methanopyrido[1,2-a][1,4]diazonine]-10′-carboxamide]: 205×.
The same measure for `C[C@H]1CC[C@]2(CO[C@H](Cc3ccccc3)O2)[C@H]2CN1C(=O)c1c(O)c(=O)c(C(=O)NCc3c(F)cc(F)cc3F)cn12` [Example 134, (2S,3′S,4R,7′R)-2-benzyl-12′-hydroxy-3′-methyl-1′,11′-dioxo-N-(2,4,6-trifluorobenzyl)-1′,4′,5′,11′-tetrahydro-3′H,7′H-spiro[[1,3]dioxolane-4,6′-[2,7]methanopyrido[1,2-a][1,4]diazonine]-10′-carboxamide]: 3×.
The same measure for `C[C@H]1CC[C@]2(COC(Cc3ccccc3)O2)[C@H]2CN1C(=O)c1c(O)c(=O)c(C(=O)NCc3c(F)cc(F)cc3F)cn12` (stereo partly drawn) [Example 135, (2R,3′S,4R,7′R)-2-benzyl-12′-hydroxy-3′-methyl-1′,11′-dioxo-N-(2,4,6-trifuorobenzyl)-1′,4′,5′,11′-tetrahydro-3′H, 7′H-spiro(f[,3]dioxolane-4,6′-[2,7]methanopyrido[1,2-a][1,4]diazonine]-10′-carboxamide]: 224×; for `C[C@H]1CC[C@@]2(COC(Cc3ccccc3)O2)[C@H]2CN1C(=O)c1c(O)c(=O)c(C(=O)NCc3c(F)cc(F)cc3F)cn12` (stereo partly drawn) [Example 136, (3′S,4S,7′R)-2-benzyl-12′-hydroxy-3′-methyl-1′,11′-dioxo-N-(2,4,6-trifluorobenzyl)-1′,4′,5′,11′-tetrahydro-3′H,7′H-spiro[[1,3]dioxolane-4,6′-[2,7]methanopyrido[1,2-a][1,4]diazonine]-10′-carboxamide]: 5×.
As to `C[C@H]1CC[C@]2(COC(C)(C)O2)[C@H]2CN1C(=O)c1c(O)c(=O)c(C(=O)NCc3c(F)cc(F)cc3F)cn12` [Example 137, (3′S,4R,7′R)-12′-hydroxy-2,2,3′-trimethyl-1′,11′-dioxo-N-(2,4,6-trifluorobenzyl)-1′,4′,5′,11′-tetrahydro-3′H,7′H-spiro[[1,3]dioxolane-4,6′-[2,7]methanopyrido[1,2-a][1,4]diazonine]-10′-carboxamide], the “RLUC 50% HS Shift” value came out at 44×.
The same measure for `C[C@H]1CC[C@@]2(COC(C)(C)O2)[C@H]2CN1C(=O)c1c(O)c(=O)c(C(=O)NCc3c(F)cc(F)cc3F)cn12` [Example 138, (3′S,4S,7′R)-12′-hydroxy-2,2,3′-trimethyl-1′,11′-dioxo-N-(2,4,6-trifluorobenzyl)-1′,4′,5′,11′-tetrahydro-3′H,7′H-spiro[[1,3]dioxolane-4,6′-[2,7]methanopyrido[1,2-a][1,4]diazonine]-10′-carboxamide]: 26×; for `C[C@H]1CC[C@]2(COCCO2)[C@H]2CN1C(=O)c1c(O)c(=O)c(C(=O)NCc3c(F)cc(F)cc3F)cn12` [Example 139, (2R,3′S,7′R)-12′-hydroxy-3′-methyl-1′,11′-dioxo-N-(2,4,6-trifluorobenzyl)-1′,4′,5′,11′-tetrahydro-3′H,7′H-spiro[[1,4]dioxane-2,6′-[2,7]methanopyrido[1,2-a][1,4]diazonine]-10′-carboxamide]: 837×.
The same measure for `C[C@H]1CC[C@@]2(COCCO2)[C@H]2CN1C(=O)c1c(O)c(=O)c(C(=O)NCc3c(F)cc(F)cc3F)cn12` [Example 140, (2S,3′S,7′R)-12′-hydroxy-3′-methyl-1′,11′-dioxo-N-(2,4,6-trifluorobenzyl)-1′,4′,5′,11′-tetrahydro-3′H,7′H-spiro[[1,4]dioxane-2,6′-[2,7]methanopyrido[1,2-a][1,4]diazonine]-10′-carboxamide]: 17×; for `C[C@H]1CC[C@]2(COC(F)(F)O2)[C@H]2CN1C(=O)c1c(O)c(=O)c(C(=O)NCc3c(F)cc(F)cc3F)cn12` [Example 141, (3′S,4R,7′R)-2,2-difluoro-12′-hydroxy-3′-methyl-1′,11′-dioxo-N-(2,4,6-trifluorobenzyl)-1′,4′,5′,11′-tetrahydro-3′H,7′H-spiro[[1,3]dioxolane-4,6′-[2,7]methanopyrido[1,2-a][1,4]diazonine]-10′-carboxamide]: 1317×; for `C[C@H]1CCC2(N=c3ccccc3=N2)[C@H]2CN1C(=O)c1c(O)c(=O)c(C(=O)NCc3c(F)cc(F)cc3F)cn12` [Example 142, (3′S,7′R)-12′-hydroxy-3′-methyl-1′,11′-dioxo-N-(2,4,6-trifluorobenzyl)-1′,4′,5′,11′-tetrahydro-3′H,7′H-spiro[benzo[d]imidazole-2,6′-[2,7]methanopyrido[1,2-a][1,4]diazonine]-10′-carboxamide]: 1×.
The same measure for `C[C@H]1CC[C@]2(Cc3ccccc3O2)[C@H]2CN1C(=O)c1c(O)c(=O)c(C(=O)NCc3c(F)cc(F)cc3F)cn12` [Example 143, (2S,3′S,7′R)-12′-hydroxy-3′-methyl-1′,11′-dioxo-N-(2,4,6-trifluorobenzyl)-1′,4′,5′,11′-tetrahydro-3H,3′H,7′H-spiro[benzofuran-2,6′-[2,7]methanopyrido[1,2-a][1,4]diazonine]-10′-carboxamide]: 784×.
On to `C[C@H]1CC[C@@]2(Cc3ccccc3O2)[C@H]2CN1C(=O)c1c(O)c(=O)c(C(=O)NCc3c(F)cc(F)cc3F)cn12` [Example 144, (2R,3′S,7′R)-12′-hydroxy-3′-methyl-1′,11′-dioxo-N-(2,4,6-trifluorobenzyl)-1′,4′,5′,11′-tetrahydro-3H,3′H,7′H-spiro[benzofuran-2,6′-[2,7]methanopyrido[1,2-a][1,4]diazonine]-10′-carboxamide], for which the “RLUC 50% HS Shift” value is recorded as 23×.
Turning to `COC1=NS[C@]2(CC[C@H](C)N3C[C@H]2n2cc(C(=O)NCc4ccc(F)cc4F)c(=O)c(O)c2C3=O)C1` [Example 145, (3′S,5R,7′R)—N-(2,4-difluorobenzyl)-12′-hydroxy-3-methoxy-3′-methyl-1′,11′-dioxo-1′,4′,5′,11′-tetrahydro-3′H,4H,7′H-spiro[isothiazole-5,6′-[2,7]methanopyrido[1,2-a][1,4]diazonine]-10′-carboxamide], the “RLUC 50% HS Shift” value was determined as 7×.
Regarding `COc1ccc(CN2C(C)=NO[C@@]23CC[C@H](C)N2C[C@H]3n3cc(C(=O)NCc4ccc(F)cc4F)c(=O)c(O)c3C2=O)cc1` [Example 147, (3′S,5R,7′R)—N-(2,4-difluorobenzyl)-12′-hydroxy-4-(4-methoxybenzyl)-3,3′-dimethyl-1′,11′-dioxo-1′,4′,5′,11′-tetrahydro-3′H,4H,7′H-spiro[[1,2,4]oxadiazole-5,6′-[2,7]methanopyrido[1,2-a][1,4]diazonine]-10′-carboxamide], the “RLUC 50% HS Shift” value is reported as 10×.
Take `CC1=NO[C@@]2(CC[C@H](C)N3C[C@H]2n2cc(C(=O)NCc4ccc(F)cc4F)c(=O)c(O)c2C3=O)N1` [Example 148, (3′S,5R,7′R)—N-(2,4-difluorobenzyl)-12′-hydroxy-3,3′-dimethyl-1′,11′-dioxo-1′,4′,5′,11′-tetrahydro-3′H,4H,7′H-spiro[[1,2,4]oxadiazole-5,6′-[2,7]methanopyrido[1,2-a][1,4]diazonine]-10′-carboxamide]: the “RLUC 50% HS Shift” value stood at 19×.
For `CC1=NO[C@@]2(CC[C@H](C)N3C[C@H]2n2cc(C(=O)NCc4ccc(F)cc4F)c(=O)c(O)c2C3=O)N1C` [Example 149a, (3′S,5R,7′R)—N-(2,4-difluorobenzyl)-12′-hydroxy-3,3′,4-trimethyl-1′,11′-dioxo-1′,4′,5′,11′-tetrahydro-3′H,4H,7′H-spiro[[1,2,4]oxadiazole-5,6′-[2,7]methanopyrido[1,2-a][1,4]diazonine]-10′-carboxamide], the “RLUC 50% HS Shift” value is 6×.
Turning to `CC1=N[C@]2(CC[C@H](C)N3C[C@H]2n2cc(C(=O)NCc4ccc(F)cc4F)c(=O)c(O)c2C3=O)ON1C` [Example 149b, (3′S,5R,7′R)—N-(2,4-difluorobenzyl)-12′-hydroxy-2,3,3′-trimethyl-1′,11′-dioxo-1′,4′,5′,11′-tetrahydro-2H,3′H,7′H-spiro[[1,2,4]oxadiazole-5,6′-[2,7]methanopyrido[1,2-a][1,4]diazonine]-10′-carboxamide], the “RLUC 50% HS Shift” value is 16×.
The same measure for `[2H]C([2H])([2H])OC1=NO[C@@]2(CC[C@H](C)N3C[C@H]2n2cc(C(=O)NCc4ccc(F)cc4F)c(=O)c(O)c2C3=O)C1` [Example 153, (3′S,5S,7′R)—N-(2,4-difluorobenzyl)-12′-hydroxy-3-(methoxy-d3)-3′-methyl-1′,11′-dioxo-1′,4′,5′,11′-tetrahydro-3′H,4H,7′H-spiro[isoxazole-5,6′-[2,7]methanopyrido[1,2-a][1,4]diazonine]-10′-carboxamide]: 67×; for `C[C@H]1CC[C@]2(CC(S(C)(=O)=O)=NO2)[C@H]2CN1C(=O)c1c(O)c(=O)c(C(=O)NCc3c(F)cc(F)cc3F)cn12` [Example 154, (3′S,5S,7′R)-12′-hydroxy-3′-methyl-3-(methylsulfonyl)-1′,11′-dioxo-N-(2,4,6-trifluorobenzyl)-1′,4′,5′,11′-tetrahydro-3′H,4H,7′H-spiro[isoxazole-5,6′-[2,7]methanopyrido[1,2-a][1,4]diazonine]-10′-carboxamide]: 18×.
